Entries after “also recorded” stand apart in the source; their conditions may differ.
Experiments:
[1] = Oxidation of indigo carmine 1 and ^18O incorporation into 2 by different reactive oxygen species; assay type: physicochemical; conditions: for Reaction to form 2: oxidant added to indigo carmine 1 (1 mM), PB pH 7.4
[2] = Oxygen isotope experiments (TCEP oxide mass spectra); assay type: biochemical; conditions: ^16O2, H2^18O PB, UV

Compound	Reaction to form 2 [1]	^18O incorporation into 2 ([1]; H2^18O (>95%) PB)	cleavage of the double bond of 1 to yield isatin sulfonic acid 2 ([1]; NaOCl 2 mM, PBS pH 7.4, 1 100 μM)	^18O incorporation from H2^18O into H2O2 (in words) [2]
OO [Clone H2O2, hydrogen peroxide]	no	–	–	–
O=O [^1O2^*, singlet oxygen]	yes	No	–	–
OCl [HOCl, Hypochlorous acid]	no	–	did not cleave the double bond; also recorded: does not cleave the double bond	–
potassium superoxide [HO2•/O2•^−]	no	–	–	–
Cc1c[nH]c2ccccc12 [3-methylindole]	–	–	–	negligible ^18O incorporation; also recorded: does not include oxygen incorporation from H2^18O

— US20040157280A1, “Antibody mediated ozone generation” (priority 2001, published 2004)
